Key:
[1] = tested on: Eastern Equine Encephalitis (EEEV)
SARS-CoV-2 = assay: Viral replication of SARS-CoV-2

CCCC[C@H](NC(=O)[C@H](CC(C)C)NC(=O)[C@H](Cc1ccccc1)NC(=O)[C@@H](NC(=O)[C@H](Cc1ccccc1)NC(=O)[C@@H]1CCCN1C(=O)[C@H](CCCCN)NC(=O)[C@H](CC(N)=O)NC(=O)[C@H](Cc1ccccc1)NC(=O)[C@H](CCCCN)NC(=O)[C@@H](NC(C)=O)C(C)C)C(C)C)C(=O)N[C@H](C(=O)N[C@@H](CCC(=O)O)C(=O)N[C@@H](CCC(N)=O)C(=O)N[C@@H](CC(N)=O)C(=O)N[C@H](C(=O)N[C@@H](CCCCN)C(N)=O)[C@@H](C)O)[C@@H](C)CC [SP163M, Ac-VKFNKPFVFL[Nle]IEQNTK-NH2]
viral replication of EEEV [1]: significantly reduce viral replication
viral replication of SARS-CoV-2 (SARS-CoV-2): suppressed viral replication

— patent publication US20250353898A1, “SERPIN PEPTIDE DERIVATIVES AND METHODS OF USING THE SAME” (priority 2022, published 2025)
